{"source": "PubChem BioAssay AID624099 (ICCB-Longwood, 2012)", "aim": "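Host factors E2 relies on to silence an HPV18 LCR reporter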 (primary screen)", "cell system": "human C33A cervical carcinoma cells (HPV-negative) stably expressing BPV1 E2 and an HPV18 LCR luciferase reporter", "reagents": "siRNA pool against human genes, 40 nM", "time to read-out": "72 h", "measurement": "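Per-well luciferase luminescence, z-scored on each plate against the plate mean and SD with control wells left out, then averaged across three replicate plates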", "direction": "mean z-score and z-score: higher = stronger reporter signal, weaker E2 silencing", "active means": "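Mean z ≥ 2 together with z ≥ 2 in two or more of the three replicates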", "note": "The whole screen tested about 21,000 reagents; this is a part drawn at random. In the full data, 497 (2.4%) got an active call. 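Higher z means weaker E2 silencing; only reporter increases were scored, and knock-downs that hurt cell survival may mask genuine repressor factors.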 Reagent sequences are not shown."}
{"Target gene":"CMC2 (C-X9-C motif containing 2)","mean z-score":-0.56,"z-score, replicate A":-0.72,"z-score, replicate B":-0.4,"z-score, replicate C":-0.55,"outcome":"inactive"}
{"Target gene":"LAT2 (linker for activation of T cells family member 2)","mean z-score":-1.34,"z-score, replicate A":-1.33,"z-score, replicate B":-1.13,"z-score, replicate C":-1.55,"outcome":"inactive"}
{"Target gene":"LCE1E (late cornified envelope 1E)","mean z-score":-0.3,"z-score, replicate A":-0.32,"z-score, replicate B":-0.55,"z-score, replicate C":-0.03,"outcome":"inactive"}
{"Target gene":"RNF126 (ring finger protein 126)","mean z-score":-0.04,"z-score, replicate A":0.34,"z-score, replicate B":-0.22,"z-score, replicate C":-0.24,"outcome":"inactive"}
{"Target gene":"SLC19A4P","mean z-score":1.21,"z-score, replicate A":1,"z-score, replicate B":1.3,"z-score, replicate C":1.32,"outcome":"inactive"}
{"Target gene":"HELB (DNA helicase B)","mean z-score":1.07,"z-score, replicate A":0.49,"z-score, replicate B":1.37,"z-score, replicate C":1.34,"outcome":"inactive"}
{"Target gene":"ZNF300P1 (zinc finger protein 300 pseudogene 1)","mean z-score":-0.36,"z-score, replicate A":-0.15,"z-score, replicate B":-0.19,"z-score, replicate C":-0.76,"outcome":"inactive"}
{"Target gene":"GPR101 (G protein-coupled receptor 101)","mean z-score":0.27,"z-score, replicate A":-0.07,"z-score, replicate B":0.41,"z-score, replicate C":0.48,"outcome":"inactive"}
{"Target gene":"SLCO1B3","mean z-score":0.36,"z-score, replicate A":0.44,"z-score, replicate B":0.13,"z-score, replicate C":0.51,"outcome":"inactive"}
{"Target gene":"UBXN2B (UBX domain protein 2B)","mean z-score":0.79,"z-score, replicate A":0.98,"z-score, replicate B":0.97,"z-score, replicate C":0.43,"outcome":"inactive"}
{"Target gene":"MRGPRX2 (MAS related GPR family member X2)","mean z-score":0.57,"z-score, replicate A":0.14,"z-score, replicate B":0.83,"z-score, replicate C":0.73,"outcome":"inactive"}

4 neighbouring entries from above, quoted:
{"Target gene":"SLC19A4P","mean z-score":1.21,"z-score, replicate A":1,"z-score, replicate B":1.3,"z-score, replicate C":1.32,"outcome":"inactive"}
{"Target gene":"HELB (DNA helicase B)","mean z-score":1.07,"z-score, replicate A":0.49,"z-score, replicate B":1.37,"z-score, replicate C":1.34,"outcome":"inactive"}
{"Target gene":"ZNF300P1 (zinc finger protein 300 pseudogene 1)","mean z-score":-0.36,"z-score, replicate A":-0.15,"z-score, replicate B":-0.19,"z-score, replicate C":-0.76,"outcome":"inactive"}
{"Target gene":"GPR101 (G protein-coupled receptor 101)","mean z-score":0.27,"z-score, replicate A":-0.07,"z-score, replicate B":0.41,"z-score, replicate C":0.48,"outcome":"inactive"}

More results follow:
{"Target gene":"SLC26A10P","mean z-score":-0.8,"z-score, replicate A":-1.1,"z-score, replicate B":-0.52,"z-score, replicate C":-0.78,"outcome":"inactive"}
{"Target gene":"HMGCR (3-hydroxy-3-methylglutaryl-CoA reductase)","mean z-score":-0.36,"z-score, replicate A":-0.35,"z-score, replicate B":-0.57,"z-score, replicate C":-0.17,"outcome":"inactive"}
{"Target gene":"FAM209A (family with sequence similarity 209 member A)","mean z-score":-0.44,"z-score, replicate A":-0.4,"z-score, replicate B":-0.76,"z-score, replicate C":-0.16,"outcome":"inactive"}
{"Target gene":"CNOT12 (CCR4-NOT transcription complex subunit 12)","mean z-score":-0.21,"z-score, replicate A":0,"z-score, replicate B":-0.56,"z-score, replicate C":-0.08,"outcome":"inactive"}
{"Target gene":"LOC389049 (retired record)","mean z-score":-0.51,"z-score, replicate A":-0.55,"z-score, replicate B":-0.9,"z-score, replicate C":-0.09,"outcome":"inactive"}
{"Target gene":"DEGS1 (delta 4-desaturase, sphingolipid 1)","mean z-score":0.92,"z-score, replicate A":1.46,"z-score, replicate B":0.45,"z-score, replicate C":0.86,"outcome":"inactive"}
{"Target gene":"PERM1 (PPARGC1 and ESRR induced regulator, muscle 1)","mean z-score":-0.29,"z-score, replicate A":-0.1,"z-score, replicate B":-0.41,"z-score, replicate C":-0.35,"outcome":"inactive"}
{"Target gene":"LOC392528 (retired record)","mean z-score":-1.91,"z-score, replicate A":-2.09,"z-score, replicate B":-1.89,"z-score, replicate C":-1.75,"outcome":"inactive"}
{"Target gene":"NPSR1 (neuropeptide S receptor 1)","mean z-score":-0.87,"z-score, replicate A":-0.39,"z-score, replicate B":-1.34,"z-score, replicate C":-0.87,"outcome":"inactive"}
{"Target gene":"TERF1 (telomeric repeat binding factor 1)","mean z-score":0.24,"z-score, replicate A":0.53,"z-score, replicate B":0.15,"z-score, replicate C":0.05,"outcome":"inactive"}
{"Target gene":"ME1 (malic enzyme 1)","mean z-score":0.52,"z-score, replicate A":0.89,"z-score, replicate B":0.28,"z-score, replicate C":0.39,"outcome":"inactive"}
{"Target gene":"STUB1 (STIP1 homology and U-box containing protein 1)","mean z-score":-0.46,"z-score, replicate A":-0.29,"z-score, replicate B":-0.47,"z-score, replicate C":-0.61,"outcome":"inactive"}
{"Target gene":"RBFA (ribosome binding factor A)","mean z-score":-0.29,"z-score, replicate A":-0.13,"z-score, replicate B":0.08,"z-score, replicate C":-0.82,"outcome":"inactive"}
{"Target gene":"CLVS1 (clavesin 1)","mean z-score":0.9,"z-score, replicate A":0.59,"z-score, replicate B":0.96,"z-score, replicate C":1.15,"outcome":"inactive"}
{"Target gene":"LINC02610 (long independently transcribed non-coding RNA 2610)","mean z-score":0.61,"z-score, replicate A":0.67,"z-score, replicate B":0.52,"z-score, replicate C":0.65,"outcome":"inactive"}
{"Target gene":"TMEM238L (transmembrane protein 238 like)","mean z-score":0.7,"z-score, replicate A":0.74,"z-score, replicate B":0.72,"z-score, replicate C":0.65,"outcome":"inactive"}
